Reference: publication PMC5855875 (Chemical Science, 2017)
Bridge positions count the residues as written; N and C are the ends. Square brackets hold non-standard residues; d marks the D form. Peptide text beside a SMILES is read from it. d(aIle) = CC[C@H](C)[C@@H](N)C(=O)O; dNMeF = CN[C@H](Cc1ccccc1)C(=O)O

Assay: NMR titration with geranyl pyrophosphate (lipid II mimic)
Format: binding
Method: In order to evaluate target binding, we have performed the lipid II TLC binding assay[2] with Ala10-teixobactin. This assay provides qualitative binding data of Ala10-teixobactin with lipid II. […] Therefore, in order better understand the target binding of teixobactin analogues in a quantitative manner, extensive NMR studies (Fig. 6) on Ala10-teixobactin and geranyl pyrophosphate were performed.
This can occur due to intermediate exchange on the NMR time-scale, and therefore cooperative binding is not an obvious choice.

## CC[C@H](C)[C@H](NC(=O)[C@@H](Cc1ccccc1)NC)C(=O)N[C@@H](CO)C(=O)N[C@H](CCC(N)=O)C(=O)N[C@@H](C(=O)N[C@H](C(=O)N[C@@H](CO)C(=O)N[C@H]1C(=O)N[C@@H](C)C(=O)N[C@@H](C)C(=O)N[C@@H]([C@@H](C)CC)C(=O)O[C@H]1C)[C@@H](C)CC)[C@@H](C)CC [Compound 8, Ala10-teixobactin] (H-[dNMeF]IS[dQ][d(aIle)]IS[dT]AAI; ester 8-C)
2 Ile Hα
  Hill coefficient: 2.1
3 Ser Hα
  Hill coefficient: 2.0
4 D-Gln Hα
  Hill coefficient: 2.2
5 D-Ile Hα
  Hill coefficient: 1.7
9 Ala Hα
  Hill coefficient: 2.1
11 Ile Hα
  Hill coefficient: 1.5
All N-terminal residues
  Hill coefficient: ~2
